Reference: patent publication US10633417B2 (priority 2013, dated 2020)

The chains behind the UniProt entries cited, without tags or fusion partners. Residues count along the entry.
UniProt Q9GZZ6, 25-450 limits assumed: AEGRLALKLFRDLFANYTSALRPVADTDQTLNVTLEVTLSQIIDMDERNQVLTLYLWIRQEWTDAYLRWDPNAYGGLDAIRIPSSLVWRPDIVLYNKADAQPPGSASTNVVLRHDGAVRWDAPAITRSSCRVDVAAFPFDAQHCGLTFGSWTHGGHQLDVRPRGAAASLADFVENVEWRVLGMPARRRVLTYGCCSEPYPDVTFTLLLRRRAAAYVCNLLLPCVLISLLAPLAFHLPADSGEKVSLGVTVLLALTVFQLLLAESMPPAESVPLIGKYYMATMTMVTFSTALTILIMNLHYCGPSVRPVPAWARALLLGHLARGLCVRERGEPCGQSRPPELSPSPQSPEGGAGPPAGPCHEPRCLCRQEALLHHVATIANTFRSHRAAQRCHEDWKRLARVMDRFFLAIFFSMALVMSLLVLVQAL
UniProt Q9UGM1, 26-479 limits assumed: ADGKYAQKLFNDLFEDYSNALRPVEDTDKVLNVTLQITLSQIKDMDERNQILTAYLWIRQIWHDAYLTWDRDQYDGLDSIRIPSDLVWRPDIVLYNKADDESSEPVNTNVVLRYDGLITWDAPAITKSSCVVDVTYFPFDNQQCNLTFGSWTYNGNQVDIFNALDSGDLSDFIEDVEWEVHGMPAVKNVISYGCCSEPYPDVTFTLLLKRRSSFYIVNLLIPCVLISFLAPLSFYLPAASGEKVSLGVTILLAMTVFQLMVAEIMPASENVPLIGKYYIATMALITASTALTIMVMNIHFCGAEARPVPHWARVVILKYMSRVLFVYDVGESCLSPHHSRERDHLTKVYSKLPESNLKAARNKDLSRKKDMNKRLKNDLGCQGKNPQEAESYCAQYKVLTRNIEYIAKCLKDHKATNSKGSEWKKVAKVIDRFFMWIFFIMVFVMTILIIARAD

Target: human α9α10 nAChR (Homo sapiens, UniProt Q9GZZ6+Q9UGM1)
Assay: functional activity on human α9α10 nAChR expressed in Xenopus oocytes
Type: cell-based
Conditions: read-out: Human α9α10 IC50, analogs with a C-terminal COOH

## C[C@@H](O)[C@@H]1NC(=O)[C@@H]2CSSC[C@@H](C(=O)N[C@@H](Cc3ccc(O)cc3)C(=O)O)NC(=O)[C@H](CCC(N)=O)NC(=O)[C@H](Cc3ccc(O)c(I)c3)NC(=O)[C@H](CCCNC(=N)N)NC(=O)[C@H](CSSC[C@H](NC(=O)CN)C(=O)N2)NC(=O)[C@H](CCCNC(=N)N)NC(=O)[C@@H]2CCCN2C(=O)[C@H](CC(=O)O)NC1=O [Analog 11]
  IC50: 0.44 nM

Only a part of the results on these compounds is given; other tests are left out.
